Pooled drug test results. Numbers come from NIAID ChemDB, via PubChem.

All rows: target-level tests; organism: HIV-1; protein: Integrase; endpoint: IC50

Rows are shuffled and stem from different studies. Two numbers with a dash give a range or band. ICn: concentration for n% inhibition. Blank or dashed fields: not listed here.

compound | method | strain | changes | result
C=C1CC[C@H]2[C@](C)(CCC=C(C)C)[C@@H](OC(C)=O)CC[C@]2(C)[C@@H]1Cc1c(OC)oc(C)c(C)c1=O | absorbance | - | - | 10 µM
N#C/C(=C\c1cc(O)c(O)c(O)c1)C(=O)NCCCCCNC(=O)/C(C#N)=C/c1cc(O)c(O)c(O)c1 | 3′ processing / substrate cleavage | - | - | 0.45 µM
CCOC(=O)C(C(=O)OCC)c1cn(S(=O)(=O)c2ccc(C)cc2)c2ccc(NC(=O)c3cc(F)c(F)c(F)c3)cc12 | strand transfer / fluorescence | - | Y143R | >25 µM
Cc1c2cc[n+](C)cc2c(C)c2c1[nH]c1ccc(O)cc12 | 3′ processing / substrate cleavage | - | - | 10.1 µM
Oc1ccc2c(c1)OC[C@]1(O)Cc3cc(O)c(O)cc3[C@H]21 | strand transfer / radiometric | HXB2 | - | 35 µM
CC(C)=C[C@H]1C[C@H](C)[C@]2(CC[C@]3(C)C[C@H]4[C@H](C(=O)C[C@@]4(C)O)C(C=O)=C[C@H]32)O1 | absorbance | - | - | 48 µM
COc1ccc([C@H]2c3cc(O)c(O)cc3C[C@@H]3C(=O)OC[C@H]23)cc1OC | strand transfer / radiometric | HXB2 | - | 7 µM
CC(C)=CCC[C@H](C)[C@H]1CC[C@]2(C)C[C@H]3[C@H](C(=O)C[C@@]3(C)O)C(C=O)=C[C@@H]12 | absorbance | - | - | 6.7 µM
CC1=C(CC(=O)O)c2cc(F)ccc2/C1=C\c1ccc(S(C)=O)cc1 | AlphaScreen | - | - | 13.85 µM
O=c1c(O)c(-c2ccc(O)c(O)c2)oc2cc(O)ccc12 | substrate cleavage | - | - | 28.4 µM
CO[C@@H]1O[C@@H](OC)[C@@](O)(C2C[C@]3(C)C4CCC=C5C(=O)OC[C@]54CC[C@H]3C(=O)O2)[C@@H]1O | strand transfer / absorbance | - | - | 36.82 µM
O=C1c2cccc(O)c2C(=O)c2c(O)cccc21 | 3′ processing / substrate cleavage | - | - | >100 µM
CCOC(=O)C(C(=O)OCC)c1cn(S(=O)(=O)c2ccc(C)cc2)c2ccc(NC(=O)c3ccc(OC)cc3)cc12 | strand transfer / fluorescence | - | G140S | >25 µM
CCCCc1[nH]cc(CC(Cc2cccs2)C(=O)O)[n+]1Cc1ccc(C(=O)O)cc1 | AlphaScreen | - | - | 36.85 µM
CC[C@@]1(O)C(=O)OCc2c1cc1n(c2=O)Cc2cc3c(N)cccc3nc2-1 | 3′ processing / substrate cleavage | - | - | >100 µM
C[C@@H]1CC[C@@]23COC(=O)C2=CCCC3[C@@]1(C)CCC1=CC(=O)OC1O | strand transfer / absorbance | - | - | 34.66 µM
N#CC(C#N)=Cc1cc(O)c(O)c(O)c1 | 3′ processing / substrate cleavage | - | - | 5–10 µM
Nc1c2ccccc2nc2ccccc12 | 3′ processing / substrate cleavage | - | - | >100 µM
O=c1cc2ccccc2c(O)n1O | ELISA | - | - | 4.11 µM
N#C/C(=C\c1ccc(O)c(O)c1)C(=O)NCCc1ccc(O)c(O)c1 | 3′ processing / substrate cleavage | - | - | 5–10 µM
Cc1ccc(S(=O)(=O)n2cc(C(C(=O)O)C(=O)O)c3cc(NC(=O)c4cccc(C)c4O)ccc32)cc1 | strand transfer / fluorescence | - | G140S | 23.8 µM
Cn1cc(NC(=O)c2cc(NC(=O)c3cc(NC=O)cn3C)cn2C)cc1C(=O)NCCC(=N)N | 3′ processing / substrate cleavage | - | - | >100 µM
O=C1OC[C@@H]2[C@@H](c3ccc(O)c(O)c3)c3cc(O)c(O)cc3C[C@H]12 | strand transfer / radiometric | HXB2 | - | 0.5 µM
C[C@@H]1CC[C@@]2(C)C(C(=O)O)=CC(=O)CC2[C@@]1(C)CCC1=CCOC1=O | strand transfer / absorbance | - | - | >50 µM
COc1c(O)cc2c(=O)oc3c(O)c(O)cc4c(=O)oc1c2c34 | strand transfer / absorbance | - | - | >100 µg/mL
Cc1nc2c(-c3ccc(Br)cc3)cccc2c(-c2ccc3c(c2)OCCO3)c1C(OC(C)(C)C)C(=O)O | strand transfer / fluorescence | - | - | 0.05 µM
O=C1OC[C@H]2[C@H](c3ccc(O)c(O)c3)c3cc(O)c(O)cc3C[C@H]12 | strand transfer / radiometric | HXB2 | - | 0.5 µM
N#C/C(=C\c1ccc(O)c(O)c1)C(=O)NCN1CCN(C(=O)/C(C#N)=C/c2ccc(O)c(O)c2)CC1 | 3′ processing / substrate cleavage | - | - | 10–100 µM
CC(=O)NCCSS(=O)(=O)CCCCS(=O)(=O)SCCNC(C)=O | 3′ processing / substrate cleavage | - | - | >200 µM
CC1(C)OC(=O)/C(=C/C(=O)c2cn(Cc3cc(F)ccc3F)c3ccc(Br)cc23)O1 | strand transfer / fluorescence | - | - | 10.5 µM
O=C1C=CC(=O)c2c(O)cccc21 | 3′ processing / substrate cleavage | - | - | >100 µM
O=c1c(O)c(-c2ccc(O)c(O)c2)oc2cc(O)c(O)c(O)c12 | substrate cleavage | - | - | 0.8 µM
C/C=C/c1cc(=O)c(C(=O)c2c(OC)cc(OC)cc2C(=O)OC)co1 | absorbance | - | - | 11 µM
O=CCc1c(-c2ccccc2)c2cc(Cl)ccc2[nH]c1=O | AlphaScreen | - | - | 12 µM
O=C(O)C(=O)/C=C(\O)c1cn(Cc2ccc(F)cc2)c2ccc(Br)cc12 | strand transfer / fluorescence | - | Y143R | 0.37 µM
O=C(O)C(=O)/C=C(\O)c1c[nH]c2cccc(O)c12 | AlphaScreen | - | - | 35 µM
Cc1ccc(S(=O)(=O)n2cc(/C(O)=C/C(=O)C(=O)O)c3cc(F)ccc32)cc1 | strand transfer / fluorescence | - | Y143R | 9.8 µM
CCCCNc1cc(C(=O)O)cc(S(N)(=O)=O)c1Oc1ccccc1 | AlphaScreen | - | - | 13.53 µM
CC(C)=CCC[C@H](C)[C@H]1CC[C@]2(C)C[C@H]3[C@@H](C(=O)C[C@@]3(C)O)C(C=O)=C[C@@H]12 | absorbance | - | - | 33 µM
N#C/C(=C\c1cc(O)c(O)c(I)c1)C(=O)NCCCc1ccccc1 | 3′ processing / substrate cleavage | - | - | 10–100 µM
COc1cc([C@@H]2c3cc4c(cc3[C@@H](O[C@@H]3O[C@@H]5CO[C@@H](C)O[C@H]5[C@H](O)[C@H]3O)[C@H]3COC(=O)[C@H]23)OCO4)cc(OC)c1O | 3′ processing / substrate cleavage | - | - | >100 µM
Cc1ccc(S(=O)(=O)n2cc(C(=O)/C=C3\OC(C)(C)OC3=O)c3cc(Br)ccc32)cc1 | strand transfer / fluorescence | - | - | 5.7 µM
CC(C)c1c(C(=O)Nc2ccccc2)c(-c2ccccc2)c(-c2ccc(F)cc2)n1CC[C@@H](O)C[C@@H](O)CC(=O)O | AlphaScreen | - | - | 8.9 µM